Pooled drug test results. Numbers come from NIAID ChemDB, via PubChem.

Common to all: whole-cell or culture tests; species: HIV-1; cells: MT-4; measure: EC50

ECn: concentration that inhibits the pathogen or its effect by n%.

structure,strain,mutations,method,value
CCOC(=O)c1cccn1S(=O)(=O)c1cc(Cl)ccc1NC(=O)CBr,IIIB,,cytopathic effect / XTT,>1.7 µM
Clc1ccc2c(c1)nnc1ccnn12,IIIB,,cytopathic effect / MTT,>200 µM
CCc1c(C(=O)c2cc(F)cc(F)c2)n(Cc2cccnc2)c(=O)[nH]c1=O,,,cytopathic effect / MTT,0.112 µg/mL
CC(C)(C)[Si](C)(C)OC[C@H]1O[C@@H](n2ccc(=O)[nH]c2=O)[C@H](O[Si](C)(C)C(C)(C)C)[C@@]12O[C@H]2C(N)=O,IIIB,,cytopathic effect / trypan blue,>10 µM
CCOC(=O)c1cccn1S(=O)(=O)c1cc(Cl)ccc1NC(=O)COC,IIIB,,cytopathic effect / XTT,0.4 µM
CCN(CC)CCOc1ccc(NC(=O)COc2ccccc2C(=O)c2ccc(OC)cc2)cc1,RF,,cytopathic effect,0.777 µM
Nc1nc2c(ncn2C2CC(O)C(COP(=O)(S)OC3CC(n4cnc5c(=O)[nH]c(N)nc54)OC3COP(O)(=S)OC3CC(n4cnc5c(=O)[nH]c(N)nc54)OC3CO)O2)c(=O)[nH]1,IIIB,,cytopathic effect / MTT,37.1 µM
Cc1cn([C@H]2C[C@H](N=[N+]=[N-])[C@@H](COP(=O)(O)C(=O)NCCN)O2)c(=O)[nH]c1=O,GKV-4046,,p24,1.7 µM
CCCc1c(OC2CCCC2)c2cc(OC(F)(F)F)ccc2[nH]c1=O,Nevirapine-resistant (RT Y181C),RT-Y181C,,0.936 µM
CCc1c(C(=O)c2cc(C)cc(C)c2)n(Cc2ccnc(Cl)c2)c(=O)[nH]c1=O,,,cytopathic effect / MTT,0.0017 µg/mL
O=S(=O)(O)c1cc(S(=O)(=O)O)c2cc(NS(=O)(=O)c3ccc(-c4ccc(S(=O)(=O)Nc5ccc6cc(S(=O)(=O)O)cc(S(=O)(=O)O)c6c5)cc4)cc3)ccc2c1,IIIB,,cytopathic effect / MTT,>47 µM
CCNCC(=O)Nc1ccc(Cl)cc1S(=O)(=O)n1cccc1C(=O)OCC,IIIB,,cytopathic effect / XTT,1 µM
CCc1c(C(=O)c2cc(C)cc(C)c2)n(Cc2ccncc2)c(=O)[nH]c1=O,,,cytopathic effect / MTT,0.0027 µg/mL
CCOC(=O)c1cccn1S(=O)(=O)c1cc(Cl)ccc1NC(=O)CN1CCCC1,IIIB,,cytopathic effect / XTT,1.9 µM
CCC(C)C#COc1c(C(C)C)c(=O)[nH]c2ccc(F)cc12,,,,0.03 µM
COc1ccc(N(C)C(=O)[C@H](Cc2cc(F)cc(F)c2)NC(=O)CN2CCN(S(=O)(=O)c3cccc(N)c3)CC2=O)cc1,IIIB,,MTT,0.16 µM
Cc1cc(/C=C/C#N)cc(C)c1Oc1nc(NC2CCN(Cc3ccc(Br)cc3)CC2)nc2ccsc12,RES056,,MTT,0.154 µM
Nc1nc2c(ncn2C2CC(O)C(COP(=O)(S)OC3CC(n4cnc5c(=O)[nH]c(N)nc54)OC3COP(O)(=S)OC3CC(n4cnc5c(=O)[nH]c(N)nc54)OC3COP(=O)(O)O)O2)c(=O)[nH]1,IIIB,,cytopathic effect / MTT,43.8 µM
CCOC(=O)c1cccn1S(=O)(=O)c1cc(Cl)ccc1NC(=O)c1ccccc1,IIIB,,cytopathic effect / XTT,50 µM
CCOc1c(OCC2CCC2)c2cc(F)ccc2[nH]c1=O,Nevirapine-resistant (RT Y181C),RT-Y181C,,1 µM
Cc1ccccc1CN1CCC(Nc2nc(Oc3c(C)cc(/C=C/C#N)cc3C)c3sccc3n2)CC1,RES056,,MTT,0.829 µM
CC(C)[C@H](C)CC[C@](C)(O)[C@H]1C(=O)C[C@H]2[C@@H]3C(=O)C=C4C[C@@H](O)CC[C@]4(C)[C@H]3CC[C@@]21C,NL4-3,G140S/Q148R INI-resistant,MTT,0.1053 µM
CCCc1c(OC2CCCC2)c2cc(Br)ccc2[nH]c1=O,Nevirapine-resistant (RT Y181C),RT-Y181C,,1.25 µM
C=C(C)[C@@H]1CC[C@]2(C(=O)NCCCCCCCC(=O)Nc3ccc(C(=O)O)cc3)CC[C@]3(C)[C@H](CC[C@@H]4[C@@]5(C)CC[C@H](OC(=O)CC(C)(C)C(=O)O)C(C)(C)[C@@H]5CC[C@]43C)[C@@H]12,NL4-3,,p24,0.007 µM
Cc1cn([C@@H]2O[C@H](CO[Si](C)(C)C(C)(C)C)C3(O[C@H]3C(=O)NO)[C@H]2O[Si](C)(C)C(C)(C)C)c(=O)[nH]c1=O,IIIB,,cytopathic effect / trypan blue,>2 µM
Cc1cc(Cn2c(C(=O)c3cc(Cl)cc(Cl)c3)c(C(C)C)c(=O)[nH]c2=O)cc(C)n1,,,cytopathic effect / MTT,0.0028 µg/mL
COc1ccc(N(C)C(=O)[C@H](Cc2cc(F)cc(F)c2)NC(=O)CN2CCN(S(=O)(=O)c3cccc(C)c3)CC2=O)cc1,IIIB,,MTT,0.91 µM
O=[N+]([O-])c1cnn2c1nnc1ccc(Cl)cc12,IIIB,,cytopathic effect / MTT,>1.7 µM
CCCc1c(OC2CCCC2)c2ccccc2[nH]c1=O,,,,0.154 µM
CCOC(=O)c1cccn1S(=O)(=O)c1cc(Cl)ccc1NC(=O)CSC,IIIB,,cytopathic effect / XTT,0.5 µM
CCn1c(C)c(C(=O)OC)c(C(=O)OC)c1Cc1ccccc1,G910-6 (RT D67N K70R T215Y K219Q),RT-D67N K70R T215Y K219Q,cytopathic effect / MTT,6.8 µM
CC(C)(C)[Si](C)(C)OC[C@H]1O[C@@H](n2ccc(=O)[nH]c2=O)[C@H](O[Si](C)(C)C(C)(C)C)[C@]12O[C@@H]2CO,IIIB,,cytopathic effect / trypan blue,>10 µM
COP(=O)(c1cc(C)cc(CCC#N)c1)c1c(C(N)=O)[nH]c2ccc(Cl)c(F)c12,IIIB,Y181C,cytopathic effect,0.0028 µM
Cc1cn([C@H]2C[C@H](N=[N+]=[N-])[C@@H](COP(=O)(O)C(N)=O)O2)c(=O)[nH]c1=O,GKV-4046,,p24,0.8 µM
C=C(C)[C@@H]1CC[C@]2(C(=O)N[C@H](CC(C)C)C(=O)O)CC[C@]3(C)[C@H](CC[C@@H]4[C@@]5(C)CC[C@H](OC(=O)C(C)(C)CC(=O)O)C(C)(C)[C@@H]5CC[C@]43C)[C@@H]12,NL4-3,,p24,0.01 µM
Cc1cc(C#N)cc(C)c1Oc1nc(NC2CCC(NCc3ccc(S(C)(=O)=O)cc3)CC2)nc2ccsc12,IIIB,NNRTI-resistant,MTT,113 µM
CCc1c(OC2CCCC2)c2cc(Cl)ccc2[nH]c1=O,Nevirapine-resistant (RT Y181C),RT-Y181C,,1.22 µM
CC(C)C1=C2C(CC1=O)[C@@H](C(=O)NCCN(CCN(C)C)Cc1ccc(Cl)cc1)C[C@@H]1[C@@H]2CCC2C3C(CC[C@]21C)C(C)(C)C(C1=CC[C@@H](C(=O)O)CC1)=C[C@H]3C,NL4-3,V370A,MTS / propidium iodide,>15 µM
CCc1cc(/C=C/C#N)cc(CC)c1-c1cccc2c(N)nc(Nc3ccc(C#N)cc3)nc12,HXB2,,cytopathic effect / luminescence,0.0024 µM
C=C(C)[C@@H]1CC[C@]2(C(=O)NCCCCCCCC(=O)N[C@@H](CC(C)C)C(=O)O)CC[C@]3(C)[C@H](CC[C@@H]4[C@@]5(C)CC[C@H](OC(=O)CC(C)(C)C(=O)O)C(C)(C)[C@@H]5CC[C@]43C)[C@@H]12,NL4-3,,p24,0.087 µM
Cc1cc(/C=C/C#N)cc(C)c1Oc1nc(NC2CCN(Cc3ccccc3C#N)CC2)nc2ccsc12,RES056,,MTT,0.319 µM
CCc1c(C(=O)c2cc(C)cc(C)c2)n(Cc2ccnc(C)c2)c(=O)[nH]c1=O,,,cytopathic effect / MTT,0.001 µg/mL
CCOC(=O)CC1(O)[C@@H](CO[Si](C)(C)C(C)(C)C)O[C@@H](n2ccc(=O)[nH]c2=O)[C@@H]1O[Si](C)(C)C(C)(C)C,IIIB,,cytopathic effect / trypan blue,>10 µM
CCCc1c(OC#CC2CC2)c2cc(Cl)ccc2[nH]c1=O,,,,0.058 µM
C[C@@H]1C[C@H]2C3CCC4=CC(=O)C=C[C@]4(C)[C@@]3(F)[C@@H](O)C[C@]2(C)[C@@]1(O)C(=O)CO,IIIB,,XTT / p24,100 µM
Nc1nc2c(ncn2CCC(CO)CO)c(=O)[nH]1,IIIB,,cytopathic effect / MTT,>493 µM
CCc1c(C(=O)c2cc(C)cc(F)c2)n(Cc2ccncc2)c(=O)[nH]c1=O,,,cytopathic effect / MTT,0.0101 µg/mL
COc1ccc(N(C)C(=O)[C@H](Cc2cc(F)cc(F)c2)NC(=O)CN2CCN(S(=O)(=O)c3ccc(N)cc3)CC2=O)cc1,IIIB,,MTT,0.12 µM
COC(=O)/C=C1/[C@@H](O[Si](C)(C)C(C)(C)C)[C@H](n2ccc(=O)[nH]c2=O)O[C@@H]1CO[Si](C)(C)C(C)(C)C,IIIB,,cytopathic effect / trypan blue,>2 µM
CC(C)C1=C2C(CC1=O)[C@@H](C(=O)NCCN1CCS(=O)(=O)CC1)C[C@@H]1[C@@H]2CC[C@@H]2C3[C@H](C)C=C(C4=CCC(C(=O)O)CC4)C(C)(C)[C@@H]3CC[C@]21C,NL4-3,,MTS / propidium iodide,3.39 µM
C=CS(=O)(=O)N1CCCC(NS(=O)(=O)c2c(C(N)=O)[nH]c3ccc(Br)cc23)C1,IIIB,Y181C,MTT,5.32 µM
C=C(C)[C@@H]1CC[C@]2(C(=O)O)CC[C@]3(C)[C@H](CC[C@@H]4[C@@]5(C)CC[C@H](OC(=O)CC(C)(C)C(=O)O)C(C)(C)[C@@H]5CC[C@]43C)[C@@H]12,NL4-3,,p24,0.075 µM
CCOC(=O)c1cccn1S(=O)(=O)c1cccc(NC(C)=O)c1,IIIB,,cytopathic effect / XTT,>200 µM
Cc1cn([C@H]2C[C@H](N=[N+]=[N-])[C@@H](COP(=O)(O)CO)O2)c(=O)[nH]c1=O,GKV-4046,,p24,8.3 µM
Cc1ccc(CN2CCC(Nc3nc(Oc4c(C)cc(/C=C/C#N)cc4C)c4sccc4n3)CC2)cc1,IIIB,NNRTI-resistant (RT K103N),MTT,0.0112 µM
CC1COc2c(N3CCN(C)CC3)c(F)cc3c(=O)c(C(=O)O)cn1c23,IIIB,,cytopathic effect / MTT,>200 µM
C=C(C)[C@@H]1CC[C@]2(C(=O)O)CC[C@]3(C)[C@H](CC[C@@H]4[C@@]5(C)CC[C@H](OC(=O)C(C)(C)CC(=O)O)C(C)(C)[C@@H]5CC[C@]43C)[C@@H]12,NL4-3,,p24,0.45 µM
COC(=O)c1cnn2c1nnc1ccccc12,IIIB,,cytopathic effect / MTT,>200 µM
Cc1cc(C#N)cc(C)c1Oc1nc(NC2CCC(NCc3ccc([N+](=O)[O-])cc3)CC2)nc2ccsc12,IIIB,NNRTI-resistant (RT F227L V106A),MTT,0.646 µM
C=C(C)[C@@H]1CC[C@]2(C(=O)N[C@@H](CC(C)C)C(=O)O)CC[C@]3(C)[C@H](CC[C@@H]4[C@@]5(C)CC[C@H](OC(=O)CC(C)(C)C(=O)O)C(C)(C)[C@@H]5CC[C@]43C)[C@@H]12,NL4-3,,p24,0.015 µM
CCCCCC(=O)Nc1ccc(Cl)cc1S(=O)(=O)n1cccc1C(=O)OCC,IIIB,,cytopathic effect / XTT,4.4 µM
CC1=C2C[C@]3(O)[C@@H](C)CCC[C@@]3(C)C[C@@H]2OC1=O,IIIB,,MTT,0.002 µg/mL
Cc1cc(Cn2c(C(=O)c3cc(Cl)cc(Cl)c3)c(C(C)C)c(=O)[nH]c2=O)ccn1,,,cytopathic effect / MTT,0.003 µg/mL
C=C(C)[C@@H]1CC[C@]2(C(=O)NCC(=O)N[C@@H](CC(C)C)C(=O)O)CC[C@]3(C)[C@H](CC[C@@H]4[C@@]5(C)CC[C@H](OC(=O)CC(C)(C)C(=O)O)C(C)(C)[C@@H]5CC[C@]43C)[C@@H]12,NL4-3,,p24,0.016 µM

Lines come from different laboratories, so protocols vary. An empty or dashed field is not shown.